The list shows a part of the results, in another mix than the full data. Activity calls are given as the source filed them. Cut-off read from the data, not from the text of the source: active = inhibition above about 30%; inactive = the rest, inconclusive results apart.
Test: antivirals against arbovirus infection, primary screen, cell-based, full library, 10K replicate subset (AID 1251)
Details: arbovirus infection cell-based antiviral screen; at 10 µM; hits give high values
In the case of O=C(OC1CN2CCC1CC2)c1cccc(Cl)c1 (centres undefined), the inhibition is reported as inactive: 4.99%. In the case of C(Cc1nn[nH]n1)Cc1nn[nH]n1, the inhibition is reported as inactive: -1.44%. For O=[N+]([O-])c1cc([N+](=O)[O-])c(NCC2CCS(=O)(=O)C2)c([N+](=O)[O-])c1 (centres undefined), the inhibition was inactive: -12.8%. For CC(=O)NC(SC(=S)N(C)C)C(Cl)(Cl)Cl (centres undefined), the inhibition was inactive: 4.86%. For COc1ccc(NP(C)(=O)Oc2ccccc2OC)cc1 (centres undefined), the inhibition was inactive: 7.05%. With CN(C)CCOC(=O)C(O)(c1ccccc1)C1CCCCC1 (centres undefined) the inhibition was inactive: 9.31%. With O=P(Nc1ccccn1)(c1ccc(Br)cc1)c1ccc(Br)cc1 the inhibition was inactive: -4.68%. In the case of COc1ccc(OP(C)(=O)Nc2cccc(Br)c2)cc1 (centres undefined), the inhibition is reported as inactive: 0.44%. For O=[N+]([O-])c1ncn(CCn2ncnc2[N+](=O)[O-])n1, the inhibition was inactive: -4.49%. In the case of CP(=O)(OC12CC3CC(CC(C3)C1)C2)OC12CC3CC(CC(C3)C1)C2, the inhibition is reported as inactive: -1.3%. With CCOC(=O)c1ccc(NP(C)(=O)Oc2ccc(Cl)cc2)cc1 (centres undefined) the inhibition was inactive: -3.83%. For CC1CCN(C(=O)Oc2c(Cl)cc(Cl)c3cccnc23)CC1, the inhibition was inactive: -1.22%. In the case of CN(C)C(=O)c1c([N+](=O)[O-])cc([N+](=O)[O-])cc1[N+](=O)[O-], the inhibition is reported as inactive: -30.9%. For CC(C)=N/N=C(\N)N[N+](=O)[O-], the inhibition was inactive: 5.89%. For CN(C)C(=O)OCCc1n(C)cc[n+]1C, the inhibition was inactive: -3.19%. For CCN(/C(=N/P(=O)(N1CCOCC1)N1CCOCC1)N1CCOCC1)c1ccc(OC)cc1, the inhibition was inactive: 16.7%. With CP(=O)(Nc1ccc(Cl)cc1)Oc1ccc(F)cc1 (centres undefined) the inhibition was inactive: 4.92%. In the case of COc1ccccc1OP(C)(=O)Nc1ccccc1Br (centres undefined), the inhibition is reported as inactive: 25.2%. In the case of CC(C)(C)c1ccc(OP(C)(=O)O)cc1, the inhibition is reported as inactive: 7.86%. In the case of Cc1ccc(NP(=O)(Oc2ccccc2)Oc2ccccc2)nc1, the inhibition is reported as inactive: 8.32%. For CP(=O)(Oc1ccccc1)N1CCOC1=O (centres undefined), the inhibition was inactive: 6.9%. With CCc1ccc(OP(C)(=O)Nc2cccnc2)cc1 (centres undefined) the inhibition was inactive: 5.69%. For CCc1nc2c(n1)c1c(non1O)c1c2no[n+]1[O-], the inhibition was inactive: -25.5%. With O=[N+]([O-])c1cc([N+](=O)[O-])c(CCNc2ccccc2)c([N+](=O)[O-])c1 the inhibition was inactive: -7.79%. In the case of O=[N+]([O-])c1cccc2n[nH]nc12, the inhibition is reported as inactive: 4.22%. In the case of CC(=O)N1C2C3N(C(C)=O)C1C1N(C(C)=O)C(C(N1C(C)=O)N3C(C)=O)N2C(C)=O, the inhibition is reported as inactive: 2.45%. For CCN(CC)CC(O)COC(=O)C(O)(c1ccccc1)C1CCCCC1 (centres undefined), the inhibition was inactive: 1.38%. With COc1ccc(C2=NCC(CBr)S2)cc1 (centres undefined) the inhibition was inactive: -3.46%. In the case of COc1ccc(OP(C)(=O)Nc2ccc(Br)cc2)cc1 (centres undefined), the inhibition is reported as inactive: -6.98%. With CCc1ccc(OP(C)(=O)O)cc1 the inhibition was inactive: 0.44%. With CP(=O)(Nc1ccccn1)Oc1ccccc1 (centres undefined) the inhibition was inactive: 13.4%. With COc1ccccc1OP(C)(=O)Nc1ccc(C)cc1C (centres undefined) the inhibition was inactive: -2.34%. In the case of Oc1ccccc1CNc1ccccn1, the inhibition is reported as inactive: -2.09%. In the case of O=C(NC(Sc1ccncn1)C(Cl)(Cl)Cl)c1ccccc1 (centres undefined), the inhibition is reported as inactive: -7.24%. For Cc1c2non([O-])c-2c(C)[n+](=O)[n+]1[O-], the inhibition was inactive: -6.68%. In the case of Cc1c(NP(C)(=O)Oc2ccc(C(C)C)cc2)c(=O)n(-c2ccccc2)n1C (centres undefined), the inhibition is reported as inactive: 10.7%. For CC(C)CC(=O)NC(Sc1ccc(Cl)cc1)C(Cl)(Cl)Cl (centres undefined), the inhibition was inactive: -4.62%. With O=[N+]([O-])c1cc([N+](=O)[O-])c(Nc2ccccn2)c([N+](=O)[O-])c1 the inhibition was inactive: -40.5%. In the case of CN1CCCC(OC(=O)C(c2ccccc2)c2ccccc2)C1 (centres undefined), the inhibition is reported as inactive: -11.8%. With Clc1ccc(Cl)c(NC2=NCC(CBr)S2)c1 (centres undefined) the inhibition was inactive: 0.14%. In the case of CN(C)CCOC(=O)C(O)(c1ccccc1)C1CCCC1 (centres undefined), the inhibition is reported as inactive: 4.04%. In the case of COc1ccccc1OP(=O)(Nc1ccc(C)cn1)Oc1ccccc1OC, the inhibition is reported as inactive: -4.92%. In the case of COc1ccc(OP(C)(=O)Nc2ccccn2)cc1 (centres undefined), the inhibition is reported as inactive: -1.1%. For Cc1ccc(N/C(=N/P(=O)(N2CCOCC2)N2CCOCC2)N2CCOCC2)cc1, the inhibition was inactive: 4.17%. In the case of NC(=O)c1cc([N+](=O)[O-])cc([N+](=O)[O-])c1N, the inhibition is reported as inactive: 1.41%. For CP(=O)(Nc1ccc(Cl)cc1Cl)Oc1ccccc1 (centres undefined), the inhibition was inactive: 7.9%. For CP(=O)(OCCOc1ccccc1)OCCOc1ccccc1, the inhibition was inactive: 1.43%. In the case of CCN(N=Nc1nonc1N)c1nonc1N, the inhibition is reported as inactive: 1.81%. In the case of Cc1nc2ccc3ccccc3c2o1.O=[N+]([O-])c1cc([N+](=O)[O-])c(O)c([N+](=O)[O-])c1, the inhibition is reported as inactive: -2.74%. With COc1ccc(OP(C)(=O)Nc2ccccc2Br)cc1 (centres undefined) the inhibition was inactive: -13.1%. For Cc1cc(SC(NC(=O)c2ccc(F)cc2)C(Cl)(Cl)Cl)ncn1 (centres undefined), the inhibition was inactive: -3.23%. In the case of CCOP(=O)(Nc1ccccc1)OCC, the inhibition is reported as inactive: -5.73%. For COc1ccccc1OP(C)(=O)Nc1ccc(C)c(C)c1 (centres undefined), the inhibition was inactive: 3.4%. With Cc1cc(C)cc(OP(C)(=O)Nc2cccc(C(F)(F)F)c2)c1 (centres undefined) the inhibition was inactive: -6.3%.

From PubChem BioAssay AID1251 (SRMLSC, 2008)
